A mixed list of measured activities; the numbers were collected in NIAID ChemDB.

All rows: tests in culture; species: Varicella zoster virus; cell line: HEL; measure: EC50

Blank or dashed fields: not listed here.

smiles	strain	read by	result
Nc1ccn(C[C@H]2COP(=O)(O)CO2)c(=O)n1	OKA (TK+)	plaque count	0.64 µM
Nc1nc2c(ncn2COC(CO)CO)c(=O)[nH]1	PFA-resistant/B	plaque count	0.3 µg/mL
O=c1[nH]c(=O)n([C@H]2C[C@H](O)[C@@H](CO)O2)cc1I		plaque count	0.99 µM
O=c1[nH]c(=O)n([C@H]2C[C@H](O)[C@@H](CO)O2)cc1/C=C/Br	YS	plaque count	0.0008 µg/mL
CCc1cn([C@@H]2O[C@H](CO)[C@@H](O)[C@@H]2F)c(=O)[nH]c1=O		plaque count	0.48 µM
Nc1nc2c(nnn2C[C@H]2CC[C@@H](CO)C2)c(=O)[nH]1	07/1 (TK-)	plaque count	>50 µg/mL
C[C@H]1C[C@@H](n2cnc3c(N)ncnc32)[C@H](O)[C@@H]1O	OKA	cytopathic effect	8 µg/mL
Nc1ncnc2c1ncn2CCOCP(=O)(O)O	Oka acyclovir-resistant	cytopathic effect	18.7 µM
Nc1ccn(C[C@@H](CO)OCP(=O)(O)O)c(=O)n1	PMEA-resistant	plaque count	0.24 µg/mL
O=c1[nH]c(=O)n([C@@H]2O[C@H](CO)[C@@H](O)[C@@H]2O)cc1/C=C/I		plaque count	0.0035 µM
Nc1ncnc2c1ncn2C[C@H]1COP(=O)(O)CO1	YS (TK+)	plaque count	0.43 µM
Nc1nc(N)c2ncn(C[C@H]3CC[C@@H](CO)C3)c2n1	07/1 (TK-)	plaque count	>50 µg/mL
Nc1nc2c(ncn2CCC(CO)CO)c(=O)[nH]1	ACV-resistant	plaque count	6.8 µg/mL
Nc1nc(Cl)c2ncn(C[C@H]3CC[C@@H](CO)C3)c2n1	07/1 (TK-)	plaque count	>20 µg/mL
Nc1nccc2c1ncn2C[C@@H](CO)OCP(=O)(O)O	YS/R (TK-)	plaque count	0.06 µM
O=C(O)CP(=O)(O)O	PCV-resistant/B	plaque count	17.3 µg/mL
O=c1[nH]c(=O)n([C@@H]2O[C@H](CO)[C@@H](O)[C@@H]2O)cc1/C=C/Br		plaque count	0.0023 µM
Nc1nc2c(ncn2C[C@H]2CC[C@@H](CO)C2)c(=O)[nH]1	OKA	plaque count	>200 µg/mL
Nc1nc2c(ncn2[C@@H]2O[C@H](CO)[C@H]2CO)c(=O)[nH]1	YS (TK+)	plaque count	0.18 µM

Repeating the first 3 entries:

smiles	strain	read by	result
Nc1ccn(C[C@H]2COP(=O)(O)CO2)c(=O)n1	OKA (TK+)	plaque count	0.64 µM
Nc1nc2c(ncn2COC(CO)CO)c(=O)[nH]1	PFA-resistant/B	plaque count	0.3 µg/mL
O=c1[nH]c(=O)n([C@H]2C[C@H](O)[C@@H](CO)O2)cc1I		plaque count	0.99 µM

ECn: concentration that inhibits the pathogen or its effect by n%. Conditions beyond the fields shown may differ between rows.